Measured data: PubChem BioAssay AID504761 (Drosophila RNAi Screening Center, 2011)
The deposit covers about 22,000 reagents; shown is a random part of those with a known target gene and a result. Of all reagents, 116 (0.52%) got an active call. 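Calls depend on retest data that are not deposited; infection was ranked per plate without normalising between plates; the unit of the infection score is not given.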 Raw values vary from plate to plate and are shown uncorrected. The record does not give: the amount of reagent, the time to read-out.

Purpose: 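Insect host genes that dengue virus relies on to spread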 (primary screen)
Cells: D.Mel-2 cells from Drosophila
Knock-down reagent: long dsRNA against Drosophila genes
Treatment: infection with dengue virus type 2; dose and infection time not stated
Measurement: 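Per well on two replicate plates, imaging gave the percent of cells positive for viral envelope protein, ranked by infection, and a nuclear count of cells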
Reading the numbers: infection score: higher = more virus-infected cells; cell count: higher = more cells in the well
Rule for the call: 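Low infection ranks in the two replicates (chance level up to 0.065) followed by a retest with a 1.5-fold or larger significant decrease, p below 0.05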
Calls: active = confirmed: knock-down lowers infection; inactive = not picked or not confirmed

target gene,dsRNA,"infection score, replicate 1","infection score, replicate 2","cell count, replicate 1","cell count, replicate 2",Call
trol,DRSC18613,10.7,10.1,1290,6691,inactive
trol,DRSC18814,17.2,0.4,5127,7023,inactive
CG32845,DRSC07867,4.88,4.32,6111,6324,inactive
CG32845,DRSC28003,11.3,7.52,5375,5934,inactive
CG42566,DRSC03949,1.54,4.72,6428,6588,inactive
wuc,DRSC06152,4.34,7.51,6977,6737,inactive
CG10559,DRSC14255,1.51,5.8,6886,2912,inactive
CG10559,DRSC29876,13.1,10.8,5088,5739,inactive
Dll,DRSC04610,9.66,15.6,6272,6278,inactive
Dll,DRSC27225,5.22,3.73,5750,6030,inactive
Smyd5,DRSC15483,17.6,1.06,5653,6105,inactive
CG42562,DRSC06453,8.05,15.8,7091,6957,inactive
CG3566,DRSC18311,2.18,3.77,6281,6794,inactive
CG3566,DRSC29311,,,,231,inactive
CG15306,DRSC17993,9.14,10.5,1609,4985,inactive
CG15306,DRSC18240,2.94,0.39,6729,6995,inactive
CG15306,DRSC29972,4.81,6.96,6300,6282,inactive
bon,DRSC16914,2.02,1.23,6227,6566,inactive
Tsp39D,DRSC03099,3.16,,696,383,inactive
CG10019,DRSC24959,2.67,4.31,7030,6524,inactive
rdgC,DRSC11387,14.4,7.56,6857,6733,inactive
homer,DRSC03547,1.72,2.47,5883,5943,inactive
homer,DRSC29162,10.9,25,5902,4077,inactive
CG4678,DRSC19911,3.35,17,6750,3427,inactive
CG4678,DRSC19912,5.31,6.66,6366,6260,inactive
CG32087,DRSC10806,1.92,3.74,6414,6362,inactive
CG32087,DRSC24793,4.12,4.89,2014,6767,inactive
CG3107,DRSC04888,22.1,32.8,6013,5713,inactive
UGP,DRSC10411,29.8,15.9,5308,5755,inactive
CG2017,DRSC12293,0.76,19,529,3238,inactive
Vta1,DRSC08604,2.77,10.4,7341,5944,inactive
Vta1,DRSC22848,2.75,1.51,6045,6495,inactive
mRpS25,DRSC19598,9.46,11.4,6034,6140,inactive
CG14668,DRSC12254,1.56,5.25,6912,6842,inactive
pasha,DRSC15295,1.35,2.73,6215,6526,inactive
pasha,DRSC27821,12.3,9.18,6890,6384,inactive
Hmbs,DRSC08632,5.3,5.35,6662,5662,inactive
Tmep,DRSC08215,14.7,3.97,5277,1057,inactive
Tmep,DRSC26652,5.5,11.5,6278,6462,inactive

A portion taken from the entries so far, as a working copy:
target gene,dsRNA,"infection score, replicate 1","infection score, replicate 2","cell count, replicate 1","cell count, replicate 2",Call
Smyd5,DRSC15483,17.6,1.06,5653,6105,inactive
CG42562,DRSC06453,8.05,15.8,7091,6957,inactive
CG3566,DRSC18311,2.18,3.77,6281,6794,inactive
CG3566,DRSC29311,,,,231,inactive
